Pooled drug test results. Numbers come from NIAID ChemDB, via PubChem.

All rows: whole-cell or culture tests; species: Mycobacterium tuberculosis

MIC50, MIC90 and the like: level of inhibition, or share of isolates inhibited. Blank or dashed fields: not listed here. ECn: concentration that inhibits the pathogen or its effect by n%. MIC bound comes from a single tested concentration. Lines come from different laboratories, so protocols vary. Percent inhibition refers to the dose given; in toxicity tests it is the harm to the cells.

structure | strain or isolate | method | endpoint | tested at | result
S=c1nc[nH]c2c1ccc1[nH]cnc12 | H37Rv | BACTEC | MIC bound |  | >12.5 µg/mL
CCC(CO)NCCNCc1ccc(C(F)(F)F)cc1 |  |  | MIC |  | 37.5 µM
COc1cc(N)cc2c1NC(C)CC2.O=S(=O)(O)O | H37Rv |  | MIC |  | 100 µg/mL
COc1ccc(C2Oc3cc(F)ccc3C(=O)C2O)cc1 | H37Rv |  | inhibition | 12.5 µg/mL | 50%
CCN(CC)CC1CCc2ccc3ccccc3c2C1O.Cl | H37Rv |  | MIC |  | >100 µg/mL
CC(CNCC12CC3CC(CC(C3)C1)C2)NC[C@@H]1CC[C@H]2C[C@@H]1C2(C)C |  |  | MIC |  | 50 µM
Nc1ccc(S(=O)(=O)NC(=O)c2ccccc2O)cc1 | H37Rv |  | MIC |  | >100 µg/mL
CCCCC(CC)CN1CN(CC(CC)CCCC)CC(C)(NCCN[C@H](CO)CC(C)C)C1 |  |  | MIC |  | 25 µM
CCOC(=O)Nc1cc(N)c2[nH]c(-c3ccccc3)nc2n1 | H37Rv |  | inhibition | 12.5 µg/mL | 0%
CC(C)NCCNC[C@]1(C)CCC[C@]2(C)c3ccc(C(C)C)cc3CC[C@@H]12 |  |  | MIC |  | 50 µM
CO[C@H]1/C=C/O[C@@]2(C)Oc3c(C)c(O)c4c(=O)c(c5oc6cc(N7CCN(C(C)C)CC7)cc(=O)c6nc5c4c3=C2O)NC(=O)/C(C)=C\C=C\[C@H](C)[C@H](O)[C@@H](C)[C@@H](O)[C@@H](C)[C@H](OC(C)=O)[C@@H]1C | 9 (rifampin-resistant) |  | MBC |  | 0.1 µg/mL
CCOC(=O)Nc1cc2[nH]c(-c3cccc4ccccc34)nc2c(N(CCc2ccccc2)Cc2ccccc2)n1 | H37Rv |  | EC50 |  | <12.5 µg/mL
COc1ccc(-n2c(=O)oc3ccccc3c2=O)cc1 | CNCTC MY331/88 |  | MIC |  | 125 µM
O=C(/C=C/c1ccccc1)c1cccc(Br)c1O | H37Rv |  | EC50 |  | <12.5 µg/mL
COc1c(-c2ccc3c(c2)OCO3)oc2cc(O)cc(O)c2c1=O | H37Rv | BACTEC | inhibition | 12.5 µg/mL | -16%
Cc1ccc2c(=O)n(-c3ccccc3)c(=O)oc2c1 | CNCTC MY331/88 |  | MIC |  | 62 µM
CCOC(=O)C(=O)Nc1ccc(C(=O)OCC)o1 | H37Rv | BACTEC | MIC bound |  | >12.5 µg/mL
CCCCCCC(N)C(=O)O | H37Rv |  | MIC |  | >100 µg/mL
C[C@@H]1CN(c2c(F)c(N)c3c(=O)c(C(=O)O)cn(C4CC4)c3c2F)C[C@H](C)N1 | ATCC 35830 |  | MIC |  | 0.03 µg/mL
Nc1cc(Cl)c(S(=O)(=O)[O-])cc1Cl.[Na+] | H37Rv |  | MIC |  | >100 µg/mL
CCOC(=O)Nc1cc(N(C)C/C(=N\O)c2ccc(OC)cc2)c([N+](=O)[O-])c(N)n1 | H37Rv |  | inhibition | 12.5 µg/mL | 2%
C=C(NC(C)=O)C(=O)OC | H37Rv |  | MIC |  | >100 µg/mL
CCOC(=O)c1cc2c3c(c(C(C)=O)c(O)c2[nH]1)N(C(C)=O)CC3 | H37Rv | BACTEC | MIC bound |  | >12.5 µg/mL
CC(CNCCNC(C)(C)CO)c1ccccc1 |  |  | MIC |  | 50 µM
CCCCC(CC)CN1CN(CC(CC)CCCC)CC(C)(NCCNCc2ccc(C)cc2)C1 |  |  | MIC |  | 25 µM
Nc1ccc(C(=O)c2ccc(N)cc2)cc1 | H37Rv |  | MIC |  | >100 µg/mL
O=C(/C=C/c1cccnc1)c1ccc(F)cc1 | H37Rv |  | EC50 |  | <12.5 µg/mL
O=C(O)c1ccc([N+](=O)[O-])cc1I | H37Rv |  | MIC |  | >100 µg/mL
O=Nc1c(NO)n(-c2ccccc2)c(=S)n1-c1ccccc1 | H37Rv | BACTEC | MIC bound |  | >12.5 µg/mL
c1ccc([CH2][Pb]([c]2ccccc2)([c]2ccccc2)[c]2ccccc2)cc1 | H37Rv |  | MIC |  | >100 µg/mL
O=C(CCc1ccc(O)c(O)c1)c1ccc(O)c(O)c1O | H37Rv | BACTEC | inhibition | 12.5 µg/mL | 22%
O=C(O)/C=C/C=C/c1ccccc1 | H37Rv |  | MIC |  | >100 µg/mL
C[C@H]1C[C@H](N)CN1c1cc2c(cc1F)c(=O)c(C(=O)O)cn2-c1ccc(F)cc1F | DRUG-SUS |  | MBC90 |  | >8 µg/mL
O=C1CC(c2ccccc2)Oc2cc(Br)ccc21 |  |  | EC50 |  | >12.5 µg/mL
CCOC(=O)Nc1cc(N)c(N)c(N)c1 | H37Rv |  | inhibition | 12.5 µg/mL | 10%
CC(C)(C)CC(C)(O)CN(CC(C)(O)CC(C)(C)C)C(=S)S | CS-R |  | MIC |  | 3.1 µg/mL
COc1ccc(/C=C/C(=O)c2cccc(F)c2O)cc1 | H37Rv |  | EC50 |  | >12.5 µg/mL
O=C(NNc1ccc([N+](=O)[O-])cn1)Nc1cccc2ccccc12 | H37Rv | BACTEC | MIC |  | ≥12.5 µg/mL
Cc1ccc(CNCCNC[C@]2(C)CCC[C@]3(C)c4ccc(C(C)C)cc4CC[C@@H]23)cc1 |  |  | MIC |  | 25 µM
O=C1C(Nc2ccccc2)=CC(c2ccccc2)N1c1ccccc1 | H37Rv | BACTEC | MIC |  | ≥12.5 µg/mL
CN[C@@H]1[C@H](O[C@H]2[C@H](O[C@H]3[C@H](O)[C@@H](O)[C@H](N=C(N)N)[C@@H](O)[C@@H]3N=C(N)N)O[C@@H](C)[C@]2(O)C=O)O[C@@H](CO)[C@H](O)[C@H]1O | TN3218 (W3) |  | MIC |  | >2 µg/mL
CCN(CC)CCCc1ccncc1 | H37Rv |  | MIC |  | >100 µg/mL
CC(CNCCC(c1ccccc1)c1ccccc1)NCCC1=CCCCC1 |  |  | MIC |  | 12.5 µM
CCCCCCCC/C=N/NC(=O)C(=O)N/N=C/CCCCCCCC | H37Rv | BACTEC | inhibition | 12.5 µg/mL | 19%
CCOc1ccc(NC(=O)c2cc3ccccc3cc2O)cc1 | H37Rv |  | MIC |  | 25 µg/mL
CC[C@H]1OC(=O)[C@H](C)[C@@H](O[C@H]2C[C@@](C)(OC)[C@@H](O)[C@H](C)O2)[C@H](C)[C@@H](O[C@@H]2O[C@H](C)C[C@H](N(C)C)[C@H]2O)[C@](C)(O)C[C@@H](C)CN(C)[C@H](C)[C@@H](O)[C@]1(C)O | ATCC 35827 |  | MIC |  | >8 µg/mL
CO[C@H]1/C=C/O[C@@]2(C)Oc3c(C)c(O)c4c(=O)c(c5oc6cc(N7CCN(CC(C)C)CC7)cc(=O)c6nc5c4c3=C2O)NC(=O)/C(C)=C\C=C\[C@H](C)[C@H](O)[C@@H](C)[C@@H](O)[C@@H](C)[C@H](OC(C)=O)[C@@H]1C | TN798 |  | MIC |  | 16 µg/mL
N#CCCSC(=S)N1CCCC1=O | H37Rv | BACTEC | MIC bound |  | ≤128 µg/mL
CCCCC(CC)CN1CN(CC(CC)CCCC)CC(C)(NCCNC(C)CC)C1 |  |  | MIC |  | 6.25 µM
O=C1c2ccccc2C(=O)c2c1cccc2N(CCO)CCO | H37Rv |  | MIC |  | >100 µg/mL
CCOC(=O)Nc1cc(NNc2cc(NC(=O)OCC)nc(N)c2[N+](=O)[O-])c([N+](=O)[O-])c(N)n1 | H37Rv |  | inhibition | 12.5 µg/mL | 0%
CCOc1ccccc1CNCCNCCNc1ccccc1 |  |  | MIC |  | 25 µM
O=c1oc2ccc(Br)cc2c(=O)n1-c1ccc(F)cc1 | CNCTC MY331/88 |  | MIC |  | 16 µM
O=S(=O)(c1ccccc1)c1cccc2c1NCCC2 | H37Rv | BACTEC | MIC bound |  | >12.5 µg/mL
CC(C)CCCC(C)C1CCC2C3CCC4=CC(=O)CCC4(C)C3CCC12C | H37Rv |  | MIC |  | >100 µg/mL
COC1=CC(=O)c2c(O)c3c(c(O)c2C1=O)CC(C)(O)OC3 | H37Rv | BACTEC | MIC bound |  | >12.8 µg/mL
Cc1cc(C(=O)[O-])c(C)n1-c1ccc(S(=O)(=O)c2ccc(-n3c(C)cc(C(=O)[O-])c3C)cc2)cc1.O.O.O.O.[K+].[K+] | H37Rv |  | MIC |  | >100 µg/mL
CC(C)N=c1cc2n(-c3ccc(Cl)cc3)c3ccccc3nc-2cc1Nc1ccc(Cl)cc1 | MDR13 | broth dilution / resazurin | MIC |  | 0.5 µg/mL
CCCCCCN(CCCCCC)C1=CC(=O)C(=O)c2ccccc21 | H37Rv | resazurin | inhibition | 6.25 µg/mL | 85%
COC(=O)Nc1cc2c(c(N)n1)N=C(c1ccccc1)C(C)N2 | H37Rv |  | EC50 |  | >12.5 µg/mL
C1CCC2(CC1)O[C@@H]1[C@@H](O2)[C@@H](OC2O[C@@H]3COC4(CCCCC4)O[C@H]3[C@@H]3OC4(CCCCC4)O[C@@H]23)OC2COC3(CCCCC3)O[C@H]21 | H37Rv | BACTEC | MIC bound |  | ≤12.5 µg/mL
Nc1c(Cl)ccc2cccnc12 | H37Rv |  | MIC |  | >100 µg/mL
NC(=S)N/N=C/c1nc2c3cccnc3ccc2n1Cc1ccccc1 | H37Rv | BACTEC | MIC bound |  | >12.5 µg/mL
O=c1cc(-c2ccc(O)c(-c3c(O)cc(O)c4c(=O)cc(-c5ccc(O)cc5)oc34)c2)oc2cc(O)cc(O)c12 | H37Rv |  | EC50 |  | >12.5 µg/mL
CC1COc2c(N3CCN(C)CC3)c(F)cc3c(=O)c(C(=O)O)cn1c23 | ATCC 35820 |  | MIC |  | 0.5 µg/mL
COc1ccc(S(=O)(=O)N/N=C/c2cnc[nH]2)cc1 | H37Rv | resazurin | MIC bound |  | >6.25 µg/mL
CO[C@H]1/C=C/O[C@@]2(C)Oc3c(C)c(O)c4c(O)c(c(/C=N/N5CCN(C/C=C/c6ccccc6)CC5)c(O)c4c3C2=O)NC(=O)/C(C)=C\C=C\[C@H](C)[C@H](O)[C@@H](C)[C@@H](O)[C@@H](C)[C@H](OC(C)=O)[C@@H]1C | 3064 (rifampin-sensitive) |  | MIC |  | 0.1 µg/mL
CCOc1ccccc1CNCCNCCc1ccccc1Cl |  |  | MIC |  | 25 µM
N#CC(c1ccccc1)C(c1ccccc1)C(C#N)c1ccc([N+](=O)[O-])cc1 | H37Rv |  | MIC |  | >100 µg/mL
CCCCC(O)(c1ccc2nc(NC(=O)OC)[nH]c2c1)c1cccs1 |  | BACTEC | inhibition | 0.5 µM | 0%
CCS(=O)(=O)CC(O)CS(=O)(=O)CC | H37Rv |  | MIC |  | >100 µg/mL
CC(C)C[C@@H](CO)NCCNCCc1ccc(Cl)cc1Cl |  |  | MIC |  | 25 µM
Cc1ccc2c(=O)n(-c3cccc(F)c3)c(=O)oc2c1 | CNCTC MY331/88 |  | MIC |  | 8 µM
CCC(=O)NS(=O)(=O)c1cc(N)ccc1S(=O)(=O)c1ccc(N)cc1 | H37Rv |  | MIC |  | >100 µg/mL
CCCCC(CC)CN1CN(CC(CC)CCCC)CC(C)(NCCNC(C)CC(C)C)C1 |  |  | MIC |  | 25 µM
CCCCCCCCCCCNCCNCc1ccc(F)cc1 |  |  | MIC |  | 50 µM
CC(C)=CCCC(C)C1=C(O)C(=O)C(C)=CC1=O | H37Rv | BACTEC | MIC bound |  | ≤128 µg/mL
CC(=O)c1ccc2c(ccc3ccccc32)c1 | H37Rv |  | MIC |  | >100 µg/mL
CC(C)CC(=O)N[C@H](C(=O)N[C@H](C(=O)N[C@@H](CC(C)C)[C@@H](O)CC(=O)N[C@@H](C)C(=O)N[C@@H](CC(C)C)[C@@H](O)CC(=O)O)C(C)C)C(C)C | H37Rv | BACTEC | inhibition | 12.5 µg/mL | 3%
c1ccc(C(CNCCNCCN2CCOCC2)c2ccccc2)cc1 |  |  | MIC |  | 25 µM